From patent US10154992B2, “Compounds and methods for treating HIV infection” (THE REGENTS OF THE UNIVERSITY OF CALIFORNIA, priority 2016, dated 2018) come the findings set out here.

pEC50, pIC50: −log10 of the molar value. Where two headings read alike, the source gives them in different places. Some results are limits rather than exact numbers.

Assay [1] addresses Rev-RRE IIB interaction (Human immunodeficiency virus type 1 group M subtype B, UniProt P04608+P04618). Conditions: for pEC50: read-out: Tat-hybrid EC50.
Assay [2] deals with HIV-1 provirus in U1 cells. In words: U1 activation (latency) assay, p24 ELISA. In kind it is cell-based. Conditions: for pIC50: read-out: U1 cell IC50.
In assay [3] the test system is HIV-1 isolate NL4-3. In words: Virus spreading / replication assay in Jurkat cells, p24 ELISA. Type of assay: cell-based. Conditions: read-out: Jurkat HIV-1 replication assay, Table 2.

Regarding `NC(=O)c1cc2c(-c3ccc(Oc4ccccc4)cc3)cncc2s1`, in assay [1] (Table 2), the pEC50 was 6.30 to 7.00. For the same molecule, the pIC50 in assay [2] (Table 2) is > 7.00.

As for `NC(=O)c1cc2c(-c3cnc4ccccc4c3)cncc2s1`, in assay [1] (Table 2), the pEC50 is > 7.00. The pIC50 in assay [2] (Table 2) and in assay [3] was > 7.00 in each case.

`NC(=O)c1sc2cncc(-c3cccc(-c4ccccc4)c3)c2c1N`: the pEC50 in assay [1] (Table 2) was < 6.30.

As to `CCc1c(C)nc2sc(C(N)=O)c(N)c2c1C`, the pEC50 in assay [1] (Table 1) was < 6.30. Further, the pIC50 in assay [2] (Table 1) was < 6.30.

Take `Cc1cc(C)c2c(N)c(C(N)=O)sc2n1`: the pEC50 in assay [1] (Table 1) is < 6.30. In assay [2] (Table 1), the pIC50 was < 6.30.

For the molecule `NC(=O)c1cc2c(-c3ccc4ccccc4c3)cncc2s1`, the pEC50 in assay [1] (Table 2) is > 7.00. The pIC50 in assay [2] (Table 2) and in assay [3] was > 7.00 each time.

As for `Cc1cc(C)c2c(N)c(C(=O)O)sc2n1`, in assay [1] (Table 1), the pEC50 was < 6.30.

Take `CN(C)c1cncc2sc(C(N)=O)c(N)c12`: in assay [1], the “activity in the Tat-hybrid reporter assay” value was “sub-μM potency”. In assay [1] (Table 1), the pEC50 was < 6.30. The “potency in the U1 assay” value in assay [2] was “sub-μM potency”. The pIC50 in assay [2] (Table 1) is 6.30 to 7.00.

For the molecule `CN(C)c1ccc(-c2cncc3sc(C(N)=O)c(N)c23)cc1`, the pEC50 in assay [1] (Table 2) is 6.30 to 7.00. In addition, the pIC50 in assay [2] (Table 2) was > 7.00.

Turning to `COCc1cc(C)nc2sc(C(N)=O)c(N)c12`, the pEC50 in assay [1] (Table 1) was < 6.30. Also, the pIC50 in assay [2] (Table 1) was < 6.30.

Regarding `CC(=O)c1sc2nc(C)cc(C)c2c1N`, the pEC50 in assay [1] (Table 1) is < 6.30.
